PubChem BioAssay AID1259414, Drosophila RNAi Screening Center – 2018

Aim: 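Host factors increasing or decreasing Wolbachia levels in cultured fly cells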 (primary screen)
System: Drosophila JW18 cells infected with Wolbachia
Reagent: long dsRNA against Drosophila genes, 0.25 µg dsRNA per well of a 384-well plate
Duration: 5 days
Conditions: cells persistently infected with Wolbachia before knock-down; no added drug
Measured: 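Imaged fluorescence in situ signal for Wolbachia 23S rRNA per DAPI-counted host cell, given as a robust z-score within each plate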
Reading the numbers: Wolbachia per cell robust z: higher = more Wolbachia per host cell than the plate typical
Hit rule: 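Active if absolute robust z reaches 1.5 in two or more of three replicates, leaving out multi- or no-target dsRNAs, genes unexpressed in JW18 and A1 wells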
The deposit covers about 24,000 reagents; below is a random part of those with a known target gene and a result. Of all reagents, about 1,210 (5%) were called active. 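Inactive calls also include excluded dsRNAs with several or no targets, genes unexpressed in JW18, and well A1, regardless of score.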 Unmarked entries are inactive. Reagents against one gene are numbered here. A plus sign joins genes that one reagent is predicted to hit.

Gene	reagent	Wolbachia per cell robust z, rep 1	Wolbachia per cell robust z, rep 2	Wolbachia per cell robust z, rep 3
Mccc2	1	0.807	0.223	0.141
Bace	1	-0.978	0.297	-0.237
Bace	2	-1.39	-2.49	-0.408
sei	1	-6.12	0.268	-0.124
sei	2	0.408	0.7	-0.685
Cyp309a1	1	0.259	-0.115	1.03
Obp57c + Obp57b	1	-3.12	-1.48	-0.233
CG34159	1	1.2	0.447	-0.249
CG13124	1	-8.46	0.598	-1.32
CG13124	2	-0.596	-1.09	-0.569
Sr-CI	1	0.217	-1.75	-1.1
Sr-CI	2	0.556	0.342	0.44
CheB98a	1	-0.482	0.172	-0.785
CheB98a	2	-2.28	0.31	0.544
Polr1H	1	-4.92	0.327	3.27
Polr1H	2	1.83	-0.111	-0.138
Polr1H	3	-1.21	0.793	0.399
CG15534	1	-0.745	1.13	0.0374
CG15534	2	0.528	1.92	0.978
Pmm2	1	0.587	0.00231	0.153
Pmm2	2	0.0648	-0.291	-0.588
Gale	1	-0.654	-0.439	-1.74
CG15167	1	0.423	1.05	1.23
CG30076	1	1.83	0.705	0.824
CG30076	2	-1.14	-1.35	-1.23
CG18367	1	1.21	0.125	-0.225
CG18367	2	-0.73	-0.174	-0.161
CG14624	1	1.31	0.942	0.433
CG14624	2	0.17	-0.582	0.113
tws	1	-0.361	0.784	-2.38
tws	2	1.39	-3.06	0.101
tws	3	0.697	1.29	0.443
nxf2	1	0.317	-4.21	-0.863
nxf2	2	-3.49	-0.329	-0.505
mahe	1	0.381	-0.921	-0.662
mahe	2	-0.0373	-6.45	-0.913
Lcp65Ab2 + Lcp65Ab1	1	1.67	0.337	-4.07
sim	1	1.25	-0.108	-2.31
sim	2	-0.466	-1.61	-0.804
Usp39	1	0.254	-0.572	1.01
Usp39	2	-0.326	-0.229	-1.65
vih	1	1.45	0.511	2.54
vih	2	0.853	1.09	2.27
Nt5b	1	-0.056	0.316	0.852
Nt5b	2	-0.454	-0.042	0.0676
Nt5b	3	0.774	-2.15	0.313
Nt5b	4	-0.361	-1.42	0.688
Nt5b	5	0.488	0.303	0.168
CG7943	1	0.286	-0.63	-0.413
CG17048	1	-0.668	-6.02	0.669
CG42300 + CG42299	1	0.894	0.217	-0.135
prim	1	0.0204	-2.45	-2.07
CG8379	1	0.789	-0.061	0.736
CG14691	1	-1.35	-0.0444	-7.93
CG14691	2	-0.0525	-0.754	-1.19
CG12773	1	-0.74	-9.51	0.609
CG12773	2	0.784	-0.083	1.25
Dll	1	0.0451	0.495	0.152
Dll	2	-0.00491	-0.675	0.296
beat-IIIc	1	0.138	0.554	0.37
beat-IIIc	2	-2.37	-0.677	0.308
CG13614	1	-0.0587	-1.34	0.11
Hacl	1	-0.602	1.02	0.167
Polr2G	1	0.883	0.105	2.03
CG1902	1	-0.163	-0.294	0.0775
CG4995	1	-0.587	0.766	0.0288
CG4995	2	0.581	0.648	0.669
CG9008	1	1.33	1.86	0.997
CG9008	2	0.0931	-5.19	-0.512

A portion from the list above, as a working copy:
Gene	reagent	Wolbachia per cell robust z, rep 1	Wolbachia per cell robust z, rep 2	Wolbachia per cell robust z, rep 3
CheB98a	2	-2.28	0.31	0.544
Polr1H	1	-4.92	0.327	3.27
Polr1H	2	1.83	-0.111	-0.138
Polr1H	3	-1.21	0.793	0.399
CG15534	1	-0.745	1.13	0.0374
CG15534	2	0.528	1.92	0.978
Pmm2	1	0.587	0.00231	0.153
Pmm2	2	0.0648	-0.291	-0.588
